Experimental data taken from ChEMBL document CHEMBL5346973 (J Med Chem, 2023).

Amino acid sequences for entries named in this document (tags omitted). A change or cut given only in a name is not applied to a line headed by its entry.
UniProt Q05941, whole entry, looked up: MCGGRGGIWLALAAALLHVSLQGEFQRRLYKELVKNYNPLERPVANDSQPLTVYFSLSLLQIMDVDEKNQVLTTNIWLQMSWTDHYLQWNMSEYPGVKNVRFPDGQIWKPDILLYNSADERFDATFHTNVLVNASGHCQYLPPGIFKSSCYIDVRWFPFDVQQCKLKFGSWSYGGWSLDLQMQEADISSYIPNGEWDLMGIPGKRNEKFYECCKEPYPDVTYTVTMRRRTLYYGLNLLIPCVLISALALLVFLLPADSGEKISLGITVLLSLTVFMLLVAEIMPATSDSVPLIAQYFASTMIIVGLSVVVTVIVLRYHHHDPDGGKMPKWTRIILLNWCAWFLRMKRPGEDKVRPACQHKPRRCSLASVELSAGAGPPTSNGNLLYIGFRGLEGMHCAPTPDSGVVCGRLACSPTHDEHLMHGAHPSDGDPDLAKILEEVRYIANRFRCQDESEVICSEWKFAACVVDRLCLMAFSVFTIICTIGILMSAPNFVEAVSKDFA
UniProt P43144: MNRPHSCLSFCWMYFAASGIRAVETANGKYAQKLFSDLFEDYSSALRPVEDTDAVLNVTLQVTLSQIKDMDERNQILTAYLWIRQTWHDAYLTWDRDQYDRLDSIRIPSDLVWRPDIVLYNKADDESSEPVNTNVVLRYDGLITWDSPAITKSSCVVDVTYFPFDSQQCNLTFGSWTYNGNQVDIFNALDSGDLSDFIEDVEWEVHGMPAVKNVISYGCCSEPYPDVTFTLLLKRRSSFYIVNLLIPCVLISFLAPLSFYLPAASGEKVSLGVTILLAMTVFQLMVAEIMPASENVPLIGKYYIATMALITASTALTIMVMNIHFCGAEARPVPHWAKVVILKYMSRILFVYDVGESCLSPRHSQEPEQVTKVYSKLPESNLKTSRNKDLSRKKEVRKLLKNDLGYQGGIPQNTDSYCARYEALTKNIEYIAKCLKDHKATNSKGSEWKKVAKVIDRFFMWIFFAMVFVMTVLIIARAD
UniProt Q9JLB5: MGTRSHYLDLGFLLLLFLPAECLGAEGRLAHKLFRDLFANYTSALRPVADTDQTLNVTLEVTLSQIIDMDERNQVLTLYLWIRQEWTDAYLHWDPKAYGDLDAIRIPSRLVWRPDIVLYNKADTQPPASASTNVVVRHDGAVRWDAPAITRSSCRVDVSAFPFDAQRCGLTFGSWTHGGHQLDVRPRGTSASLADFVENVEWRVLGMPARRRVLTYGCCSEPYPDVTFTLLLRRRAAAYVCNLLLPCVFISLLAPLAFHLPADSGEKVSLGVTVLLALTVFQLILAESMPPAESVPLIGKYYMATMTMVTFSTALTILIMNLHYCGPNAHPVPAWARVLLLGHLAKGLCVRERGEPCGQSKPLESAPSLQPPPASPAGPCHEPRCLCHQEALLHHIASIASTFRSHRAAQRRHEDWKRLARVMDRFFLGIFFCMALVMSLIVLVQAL

What was measured:
[1] = target: Neuronal acetylcholine receptor subunit alpha-7 (Rattus norvegicus) (UniProt Q05941); test: Antagonist activity at rat alpha7 nACh receptor expressed in Xenopus oocyte assessed as inhibition of acetylcholine-induced response at -70 mV holding potential by measuring ratio of IC50 by voltage-clamp based electrophysiological assay relative to GeXIVA; settings: filed as antagonist
Rattus norvegicus = species: Rattus norvegicus; test: Selectivity ratio of IC50 for rat alpha7 nACh receptor to IC50 for rat alpha9alpha10 nACh receptor
[2] = target: Nicotinic acetylcholine receptor alpha9/alpha10 (Rattus norvegicus) (UniProt P43144+Q9JLB5); test: Antagonist activity at rat alpha9alpha10 nACh receptor expressed in Xenopus oocyte assessed as inhibition of acetylcholine-induced response at -70 mV holding potential by measuring ratio of IC50 by voltage-clamp based electrophysiological assay relative to GeXIVA; assay type: cell-based; settings: filed as antagonist

| SMILES | Ratio IC50 [1] | Ratio IC50 (Rattus norvegicus) | Ratio IC50 [2] |
| --- | --- | --- | --- |
| CC[C@H](C)[C@@H]1NC(=O)[C@H](CCCNC(=N)N)NC(=O)[C@H](CCCNC(=N)N)NC(=O)[C@@H]2CSSC[C@H](NC(=O)[C@H](C)NC(=O)[C@H](CCCNC(=N)N)NC(=O)CNC(=O)[C@H](CO)NC(=O)[C@H](CO)NC(=O)[C@H](CCCNC(=N)N)NC(=O)[C@@H](NC(=O)[C@@H](N)[C@@H](C)O)CSSC[C@@H](C(=O)N[C@H](C(=O)O)C(C)C)NC(=O)[C@H](C)NC(=O)[C@H](CC(=O)O)NC(=O)[C@H]([C@@H](C)O)NC1=O)C(=O)N[C@@H](CCCNC(=N)N)C(=O)N[C@@H](CO)C(=O)N1CCC[C@H]1C(=O)N[C@@H](Cc1ccc(O)cc1)C(=O)N[C@@H](CC(=O)O)C(=O)N[C@@H](CCCNC(=N)N)C(=O)N[C@@H](CCCNC(=N)N)C(=O)N[C@@H](CCCNC(=N)N)C(=O)N[C@@H](CCCNC(=N)N)C(=O)N[C@@H](Cc1ccc(O)cc1)C(=O)N2 | 2.6 | 61.1 | 7.5 |
| CC[C@H](C)[C@@H]1NC(=O)[C@H](CCCNC(=N)N)NC(=O)[C@H](CCCNC(=N)N)NC(=O)[C@@H](NC(=O)[C@H](Cc2ccc(O)cc2)NC(=O)[C@H](CCCNC(=N)N)NC(=O)[C@H](CCCNC(=N)N)NC(=O)[C@H](CCCNC(=N)N)NC(=O)[C@H](CCCNC(=N)N)NC(=O)[C@H](CC(=O)O)NC(=O)[C@H](C)NC(=O)[C@@H]2CCCN2C(=O)[C@H](CO)NC(=O)[C@H](CCCNC(=N)N)NC(=O)[C@@H]2CSSC[C@H](NC(=O)[C@@H](N)[C@@H](C)O)C(=O)N[C@@H](CCCNC(=N)N)C(=O)N[C@@H](CO)C(=O)N[C@@H](CO)C(=O)NCC(=O)N[C@@H](CCCNC(=N)N)C(=O)N[C@@H](Cc3ccc(O)cc3)C(=O)N2)CSSC[C@@H](C(=O)N[C@H](C(=O)O)C(C)C)NC(=O)[C@H](C)NC(=O)[C@H](CC(=O)O)NC(=O)[C@H]([C@@H](C)O)NC1=O | 2.3 | 134 | 0.9 |
| CC[C@H](C)[C@@H]1NC(=O)[C@H](CCCNC(=N)N)NC(=O)[C@H](CCCNC(=N)N)NC(=O)[C@@H]2CSSC[C@H](NC(=O)[C@H](Cc3ccc(O)cc3)NC(=O)[C@H](CCCNC(=N)N)NC(=O)CNC(=O)[C@H](CO)NC(=O)[C@H](CO)NC(=O)[C@H](C)NC(=O)[C@@H](NC(=O)[C@@H](N)[C@@H](C)O)CSSC[C@@H](C(=O)N[C@H](C(=O)O)C(C)C)NC(=O)[C@H](C)NC(=O)[C@H](CC(=O)O)NC(=O)[C@H]([C@@H](C)O)NC1=O)C(=O)N[C@@H](CCCNC(=N)N)C(=O)N[C@@H](CO)C(=O)N1CCC[C@H]1C(=O)N[C@@H](Cc1ccc(O)cc1)C(=O)N[C@@H](CC(=O)O)C(=O)N[C@@H](CCCNC(=N)N)C(=O)N[C@@H](CCCNC(=N)N)C(=O)N[C@@H](CCCNC(=N)N)C(=O)N[C@@H](CCCNC(=N)N)C(=O)N[C@@H](Cc1ccc(O)cc1)C(=O)N2 | 3.2 | 245 | 2.3 |
| CC[C@H](C)[C@@H]1NC(=O)[C@H](CCCNC(=N)N)NC(=O)[C@H](CCCNC(=N)N)NC(=O)[C@@H]2CSSC[C@H](NC(=O)[C@H](Cc3ccc(O)cc3)NC(=O)[C@H](CCCNC(=N)N)NC(=O)CNC(=O)[C@H](CO)NC(=O)[C@H](CO)NC(=O)[C@H](CCCNC(=N)N)NC(=O)[C@@H](NC(=O)[C@H](C)N)CSSC[C@@H](C(=O)N[C@H](C(=O)O)C(C)C)NC(=O)[C@H](C)NC(=O)[C@H](CC(=O)O)NC(=O)[C@H]([C@@H](C)O)NC1=O)C(=O)N[C@@H](CCCNC(=N)N)C(=O)N[C@@H](CO)C(=O)N1CCC[C@H]1C(=O)N[C@@H](Cc1ccc(O)cc1)C(=O)N[C@@H](CC(=O)O)C(=O)N[C@@H](CCCNC(=N)N)C(=O)N[C@@H](CCCNC(=N)N)C(=O)N[C@@H](CCCNC(=N)N)C(=O)N[C@@H](CCCNC(=N)N)C(=O)N[C@@H](Cc1ccc(O)cc1)C(=O)N2 | 0.9 | 175 | 0.9 |
| CC[C@H](C)[C@@H]1NC(=O)[C@H](CCCNC(=N)N)NC(=O)[C@H](CCCNC(=N)N)NC(=O)[C@@H](NC(=O)[C@H](Cc2ccc(O)cc2)NC(=O)[C@H](CCCNC(=N)N)NC(=O)[C@H](CCCNC(=N)N)NC(=O)[C@H](CCCNC(=N)N)NC(=O)[C@H](CCCNC(=N)N)NC(=O)[C@H](CC(=O)O)NC(=O)[C@H](Cc2ccc(O)cc2)NC(=O)[C@@H]2CCCN2C(=O)[C@H](CO)NC(=O)[C@H](CCCNC(=N)N)NC(=O)[C@@H]2CSSC[C@H](NC(=O)[C@@H](N)[C@@H](C)O)C(=O)N[C@@H](CCCNC(=N)N)C(=O)N[C@@H](CO)C(=O)N[C@@H](CO)C(=O)NCC(=O)N[C@@H](CCCNC(=N)N)C(=O)N[C@@H](C)C(=O)N2)CSSC[C@@H](C(=O)N[C@H](C(=O)O)C(C)C)NC(=O)[C@H](C)NC(=O)[C@H](CC(=O)O)NC(=O)[C@H]([C@@H](C)O)NC1=O | 2.6 | 170 | 0.7 |
| CC[C@H](C)[C@@H]1NC(=O)[C@H](CCCNC(=N)N)NC(=O)[C@H](CCCNC(=N)N)NC(=O)[C@@H](NC(=O)[C@H](Cc2ccc(O)cc2)NC(=O)[C@H](CCCNC(=N)N)NC(=O)[C@H](CCCNC(=N)N)NC(=O)[C@H](CCCNC(=N)N)NC(=O)[C@H](CCCNC(=N)N)NC(=O)[C@H](CC(=O)O)NC(=O)[C@H](Cc2ccc(O)cc2)NC(=O)[C@@H]2CCCN2C(=O)[C@H](CO)NC(=O)[C@H](CCCNC(=N)N)NC(=O)[C@@H]2CSSC[C@H](NC(=O)[C@@H](N)[C@@H](C)O)C(=O)N[C@@H](CCCNC(=N)N)C(=O)N[C@@H](CO)C(=O)N[C@@H](C)C(=O)NCC(=O)N[C@@H](CCCNC(=N)N)C(=O)N[C@@H](Cc3ccc(O)cc3)C(=O)N2)CSSC[C@@H](C(=O)N[C@H](C(=O)O)C(C)C)NC(=O)[C@H](C)NC(=O)[C@H](CC(=O)O)NC(=O)[C@H]([C@@H](C)O)NC1=O | 5 | 122 | 2.2 |
| CC[C@H](C)[C@@H]1NC(=O)[C@H](CCCNC(=N)N)NC(=O)[C@H](CCCNC(=N)N)NC(=O)[C@@H](NC(=O)[C@H](Cc2ccc(O)cc2)NC(=O)[C@H](CCCNC(=N)N)NC(=O)[C@H](CCCNC(=N)N)NC(=O)[C@H](CCCNC(=N)N)NC(=O)[C@H](CCCNC(=N)N)NC(=O)[C@H](CC(=O)O)NC(=O)[C@H](Cc2ccc(O)cc2)NC(=O)[C@@H]2CCCN2C(=O)[C@H](CO)NC(=O)[C@H](CCCNC(=N)N)NC(=O)[C@@H]2CSSC[C@H](NC(=O)[C@@H](N)[C@@H](C)O)C(=O)N[C@@H](CCCNC(=N)N)C(=O)N[C@@H](C)C(=O)N[C@@H](CO)C(=O)NCC(=O)N[C@@H](CCCNC(=N)N)C(=O)N[C@@H](Cc3ccc(O)cc3)C(=O)N2)CSSC[C@@H](C(=O)N[C@H](C(=O)O)C(C)C)NC(=O)[C@H](C)NC(=O)[C@H](CC(=O)O)NC(=O)[C@H]([C@@H](C)O)NC1=O | 2.2 | 104 | 1.2 |
| CC[C@H](C)[C@@H]1NC(=O)[C@H](CCCNC(=N)N)NC(=O)[C@H](CCCNC(=N)N)NC(=O)[C@@H]2CSSC[C@H](NC(=O)[C@H](Cc3ccc(O)cc3)NC(=O)[C@H](CCCNC(=N)N)NC(=O)CNC(=O)[C@H](CO)NC(=O)[C@H](CO)NC(=O)[C@H](CCCNC(=N)N)NC(=O)[C@@H](NC(=O)[C@@H](N)[C@@H](C)O)CSSC[C@@H](C(=O)N[C@H](C(=O)O)C(C)C)NC(=O)[C@H](C)NC(=O)[C@H](CC(=O)O)NC(=O)[C@H]([C@@H](C)O)NC1=O)C(=O)N[C@@H](CCCNC(=N)N)C(=O)N[C@@H](C)C(=O)N1CCC[C@H]1C(=O)N[C@@H](Cc1ccc(O)cc1)C(=O)N[C@@H](CC(=O)O)C(=O)N[C@@H](CCCNC(=N)N)C(=O)N[C@@H](CCCNC(=N)N)C(=O)N[C@@H](CCCNC(=N)N)C(=O)N[C@@H](CCCNC(=N)N)C(=O)N[C@@H](Cc1ccc(O)cc1)C(=O)N2 | 2 | 560 | 0.6 |
